From patent publication US20240109955A1 (published 2024)
Read-outs that look alike come from different tables or passages of the source.

B1: E12 (antibody, V domains shown)
VH: EVQLVESGGGLIQPGGSLRLSCAASGVIVSYNYMNWVRQAPGKGLEWVSVIYSGGSTFYADSVRGRFTISRDNSKNTLYLQMNSLRAEDTAVYYCARDLGPAGAFDIWGLGTMVTVSS
VL: EIVLTQSPGTLSLSPGETATLSCRASQSFSSDLAWYQQKPGQAPRLLIYGASSRATGIPDRFSGSGSGTDFTLTISRLEPADFAVYYCQQYGSSPPVTFGGGTKVEIK
B2: E8 (antibody, V domains shown)
VH: QVTLRESGPALVKPTQTLTLTCTFSGFSLSTRGVCVSWIRQPPGKALEWLAFIDWDDDKYYNTSLKTRLTISKDTSKNQVVLTMTNVHPVDTATYYCARISSHHGSSWCTTFDYWGQGALVTVSA
VL: DTVMTQSPLSLPVTPGEPASISCRSSQSLLNSNGYNYLDWYVQKPGQSPQLLIYLGSNRASGVPDRFSGSGSGTDFTLKISRVEAEDVGVYYCMQPLQTPLFTFGPGTKVEIK
B3: MX1089 (antibody)
chain 1: QTVVTQEPSFSVSPGGTVTLTCGLSSGSVSTAYFPSWYQQTPGQAPRTLIYGTNTRSSGVPDRFSGSILGNKAALTITGAQADDESDYYCVLYMGRGIVVFGGGTKLTVLGGSSGEIVMTQSPAILSVSPGERATLSCRASQSVAINLAWYQQKPGQAPRLLIYAASSRATGIPGRFSGSGSETNFTLTISSLQSGDFAVYYCQQYITWPPSYTFGQGTKLEIKGGGGSGGSGSGGGGSASGSGEVQLVESGGALIQPGGSLRLSCAASGIIVSANYMSWVRQAPGKGLEWVSVIYSGGSTFYADSVKGRFTISRDNSKNTLYLEMNSLRAEDTAVYYCARDAPILGVSDWGQGTLVTVSSGGSSGQVQLVESGGGVVQPGRSLRLSCAASGFTLSSYGMHWVRQAPGKGLEWVAVISYDGSNKYYVDSVKGRFTISRDNSKNTLYLQMNSLRAEDTAVYYCRWAYWELLPDYYYGMDVWGQGTTVTVSSASGGSGDKTHTCPPCPAPELLGGPSVFLFPPKPKDTLMISRTPEVTCVVVDVSHEDPEVKFNWYVDGVEVHNAKTKPREEQYNSYVVSVLTVLHQDWLNGKEYKCKVSNKALPAPIEKTISKAKGQPREPQVYTLPPCRDELTKNQVSLWCLVKGFYPSDIAVEWESNGQPENNYKTTPPVLDSDGSFFKKLTVDKSRWQQGNVFSCSVLHEALHSHYTQKSLSLSPG
chain 2: DTVMTQSPLSLPVTPGEPASISCRSSQSLLNSNGYNYLDWYVQKPGQSPQLLIYLGSNRASGVPDRFSGSGSGTDFTLKISRVEAEDVGVYYCMQPLQTPLFTFGPGTKVEIKGGSSGEIVLTQSPGTLSLSPGERATLSCRASQSVSSSYLAWYQQKPGQAPRLLIYSASSRATGIPDRFSGSGSGTDFTLTISRLEPEDFAVYFCQQYVGLTGWTFGQGTKVEIKGGGGSGGSGSGGGGSASGSGQMQLVQSGPEVKKPGTSVKVSCKASGFTFTSSAVQWVRQRQRLEWIGWIVVGSGNTNYAQKFQERVTITRDMSTSTAYMELSSLRSEDTAVYYCAAPNCSNVVCYDGFDIWGQGTMVTVSSGGSSGQVTLRESGPALVKPTQTLTLTCTFSGFSLSTRGVCVSWIRQPPGKALEWLAFIDWDDDKYYNTSLKTRLTISKDTSKNQVVLTMTNVHPVDTATYYCARISSHHGSSWCTTFDYWGQGALVTVSAASGGSGDKTHTCPPCPAPELLGGPSVFLFPPKPKDTLMISRTPEVTCVVVDVSHEDPEVKFNWYVDGVEVHNAKTKPREEQYNSYVVSVLTVLHQDWLNGKEYKCKVSNKALPAPIEKTISKAKGQPREPQVCTLPPSRDELTKNQVSLSCAVKGFYPSDIAVEWESNGQPENNYKTTPPVLDSDGSFFLVSKLTVDKSRWQQGNVFSCSVLHEALHSHYTQKSLSLSPG
B4: MX1018 (antibody)
chain: EIVMTQSPAILSVSPGERATLSCRASQSVAINLAWYQQKPGQAPRLLIYAASSRATGIPGRFSGSGSETNFTLTISSLQSGDFAVYYCQQYITWPPSYTFGQGTKLEIKGGSSGEIVMTQSPAILSVSPGERATLSCRASQSVAINLAWYQQKPGQAPRLLIYAASSRATGIPGRFSGSGSETNFTLTISSLQSGDFAVYYCQQYITWPPSYTFGQGTKLEIKGGGGSGGSGSGGGGSASGSGEVQLVESGGALIQPGGSLRLSCAASGIIVSANYMSWVRQAPGKGLEWVSVIYSGGSTFYADSVKGRFTISRDNSKNTLYLEMNSLRAEDTAVYYCARDAPILGVSDWGQGTLVTVSSGGSSGEVQLVESGGALIQPGGSLRLSCAASGIIVSANYMSWVRQAPGKGLEWVSVIYSGGSTFYADSVKGRFTISRDNSKNTLYLEMNSLRAEDTAVYYCARDAPILGVSDWGQGTLVTVSSASGGSGDKTHTCPPCPAPELLGGPSVFLFPPKPKDTLMISRTPEVTCVVVDVSHEDPEVKFNWYVDGVEVHNAKTKPREEQYNSYVVSVLTVLHQDWLNGKEYKCKVSNKALPAPIEKTISKAKGQPREPQVYTLPPSRDELTKNQVSLTCLVKGFYPSDIAVEWESNGQPENNYKTTPPVLDSDGSFFKKLTVDKSRWQQGNVFSCSVLHEALHSHYTQKSLSLSPG
B5: MX1029 (antibody)
chain: EIVLTQSPGTLSLSPGETATLSCRASQSFSSDLAWYQQKPGQAPRLLIYGASSRATGIPDRFSGSGSGTDFTLTISRLEPADFAVYYCQQYGSSPPVTFGGGTKVEIKGGSSGEIVLTQSPGTLSLSPGETATLSCRASQSFSSDLAWYQQKPGQAPRLLIYGASSRATGIPDRFSGSGSGTDFTLTISRLEPADFAVYYCQQYGSSPPVTFGGGTKVEIKGGGGSGGSGSGGGGSASGSGEVQLVESGGGLIQPGGSLRLSCAASGVIVSYNYMNWVRQAPGKGLEWVSVIYSGGSTFYADSVRGRFTISRDNSKNTLYLQMNSLRAEDTAVYYCARDLGPAGAFDIWGLGTMVTVSSGGSSGEVQLVESGGGLIQPGGSLRLSCAASGVIVSYNYMNWVRQAPGKGLEWVSVIYSGGSTFYADSVRGRFTISRDNSKNTLYLQMNSLRAEDTAVYYCARDLGPAGAFDIWGLGTMVTVSSASGGSGDKTHTCPPCPAPELLGGPSVFLFPPKPKDTLMISRTPEVTCVVVDVSHEDPEVKFNWYVDGVEVHNAKTKPREEQYNSYVVSVLTVLHQDWLNGKEYKCKVSNKALPAPIEKTISKAKGQPREPQVYTLPPSRDELTKNQVSLTCLVKGFYPSDIAVEWESNGQPENNYKTTPPVLDSDGSFFKKLTVDKSRWQQGNVFSCSVLHEALHSHYTQKSLSLSPG
B6: MX1020 (antibody)
chain: DTVMTQSPLSLPVTPGEPASISCRSSQSLLNSNGYNYLDWYVQKPGQSPQLLIYLGSNRASGVPDRFSGSGSGTDFTLKISRVEAEDVGVYYCMQPLQTPLFTFGPGTKVEIKGGSSGDTVMTQSPLSLPVTPGEPASISCRSSQSLLNSNGYNYLDWYVQKPGQSPQLLIYLGSNRASGVPDRFSGSGSGTDFTLKISRVEAEDVGVYYCMQPLQTPLFTFGPGTKVEIKGGGGSGGSGSGGGGSASGSGQVTLRESGPALVKPTQTLTLTCTFSGFSLSTRGVCVSWIRQPPGKALEWLAFIDWDDDKYYNTSLKTRLTISKDTSKNQVVLTMTNVHPVDTATYYCARISSHHGSSWCTTFDYWGQGALVTVSAGGSSGQVTLRESGPALVKPTQTLTLTCTFSGFSLSTRGVCVSWIRQPPGKALEWLAFIDWDDDKYYNTSLKTRLTISKDTSKNQVVLTMTNVHPVDTATYYCARISSHHGSSWCTTFDYWGQGALVTVSAASGGSGDKTHTCPPCPAPELLGGPSVFLFPPKPKDTLMISRTPEVTCVVVDVSHEDPEVKFNWYVDGVEVHNAKTKPREEQYNSYVVSVLTVLHQDWLNGKEYKCKVSNKALPAPIEKTISKAKGQPREPQVYTLPPSRDELTKNQVSLTCLVKGFYPSDIAVEWESNGQPENNYKTTPPVLDSDGSFFKKLTVDKSRWQQGNVFSCSVLHEALHSHYTQKSLSLSPG
B7: MX1022 (bispecific antibody)
chain: DTVMTQSPLSLPVTPGEPASISCRSSQSLLNSNGYNYLDWYVQKPGQSPQLLIYLGSNRASGVPDRFSGSGSGTDFTLKISRVEAEDVGVYYCMQPLQTPLFTFGPGTKVEIKGGSSGEIVMTQSPAILSVSPGERATLSCRASQSVAINLAWYQQKPGQAPRLLIYAASSRATGIPGRFSGSGSETNFTLTISSLQSGDFAVYYCQQYITWPPSYTFGQGTKLEIKGGGGSGGSGSGGGGSASGSGEVQLVESGGALIQPGGSLRLSCAASGIIVSANYMSWVRQAPGKGLEWVSVIYSGGSTFYADSVKGRFTISRDNSKNTLYLEMNSLRAEDTAVYYCARDAPILGVSDWGQGTLVTVSSGGSSGQVTLRESGPALVKPTQTLTLTCTFSGFSLSTRGVCVSWIRQPPGKALEWLAFIDWDDDKYYNTSLKTRLTISKDTSKNQVVLTMTNVHPVDTATYYCARISSHHGSSWCTTFDYWGQGALVTVSAASGGSGDKTHTCPPCPAPELLGGPSVFLFPPKPKDTLMISRTPEVTCVVVDVSHEDPEVKFNWYVDGVEVHNAKTKPREEQYNSYVVSVLTVLHQDWLNGKEYKCKVSNKALPAPIEKTISKAKGQPREPQVYTLPPSRDELTKNQVSLTCLVKGFYPSDIAVEWESNGQPENNYKTTPPVLDSDGSFFKKLTVDKSRWQQGNVFSCSVLHEALHSHYTQKSLSLSPG

What was measured:
Test in all cases: cell-based or functional assay
[1] = biological target: SARS-CoV-2 spike protein, Delta variant (SARS-CoV-2)
[2] = biological target: SARS-CoV-2 spike protein, original Wuhan strain (WA1) (SARS-CoV-2, UniProt P0DTC2 14-1273)
[3] = biological target: SARS-CoV-2 spike protein, D614G spike protein mutant (SARS-CoV-2, UniProt P0DTC2 14-1273)
[4] = biological target: SARS-CoV-2 spike protein, original Wuhan strain (WA1) (SARS-CoV-2, UniProt P0DTC2 14-1273); remark: listed apart in the source
[5] = biological target: SARS-CoV-2 Omicron BQ.1 spike protein (SARS-CoV-2, UniProt P0DTC2 14-1273)
[6] = biological target: SARS-CoV-2 D614G spike protein mutant (SARS-CoV-2, UniProt P0DTC2 14-1273)
[7] = biological target: SARS-CoV-2 Delta variant spike protein (SARS-CoV-2, UniProt P0DTC2 14-1273)
[8] = biological target: SARS-CoV-2 D614G spike protein mutant (SARS-CoV-2, UniProt P0DTC2 14-1273); remark: listed apart in the source

Binder	IC50, pseudovirus neutralization [5] [µg/mL]	IC80, pseudovirus neutralization [5] [µg/mL]	IC80, pseudovirus neutralization [6] [µg/mL]	IC50, pseudovirus neutralization [7] [µg/mL]	IC80, pseudovirus neutralization [7] [µg/mL]	further results
B1	–	–	–	–	–	IC50, pseudovirus neutralization [1]: 0.0173 µg/mL; IC80, pseudovirus neutralization [1]: 0.0321 µg/mL; IC80, pseudovirus neutralization [2]: 0.118 µg/mL
B2	–	–	–	–	–	IC50, pseudovirus neutralization [1]: 0.00681 µg/mL; IC80, pseudovirus neutralization [1]: 0.0333 µg/mL; IC50, pseudovirus neutralization [2]: 0.00877 µg/mL; IC80, pseudovirus neutralization [2]: 0.0207 µg/mL
B3	–	–	–	–	–	IC50, pseudovirus neutralization [3]: 0.0132 µg/mL; IC80, pseudovirus neutralization [3]: 0.0294 µg/mL; IC50, pseudovirus neutralization [4]: 0.0368 µg/mL; IC80, pseudovirus neutralization [4]: 0.0687 µg/mL
B4	0.0513	0.0983	0.0581	0.0513	0.0983	–
B5	0.0541	0.0694	0.0341	0.0541	0.0694	IC50, pseudovirus neutralization [6]: 0.00862 µg/mL
B6	0.00778	0.0174	0.00794	0.00778	0.0174	IC50, pseudovirus neutralization [6]: 0.0036 µg/mL
B7	–	–	–	–	–	IC80, pseudovirus neutralization [8]: 0.0133 µg/mL
